Anti-infective test results gathered from many reports (values: NIAID ChemDB through PubChem).

Common to all: whole-cell or culture tests; agent: Haemophilus influenzae

A number after MIC or MFC names an inhibition level or a share of isolates.

CC(=O)NC[C@H]1CN(c2ccc(-c3nsc(C#N)n3)c(F)c2)C(=O)O1 ; strain: UC 30063 ; read-out: MIC ; value: >16 µg/mL
CO/N=C1\CN(c2nc3c(cc2F)c(=O)c(C(=O)O)cn3C2CC2)CC1CN ; strain: 24 strains ; read-out: MIC90 ; value: 0.016 µg/mL
COCC1=C(C(=O)O)N2C(=O)C(NC(=O)/C(=N/OC)c3csc(N)n3)C2SC1 ; strain: 434 strains ; read-out: MIC90 ; value: ≤0.06 µg/mL
CC(=O)NC[C@H]1CN(c2ccc(-c3cnc(C(C)=O)s3)c(F)c2)C(=O)O1 ; strain: UC 30063 ; read-out: MIC ; value: >16 µg/mL
COc1c(N2C[C@@H]3CCCN[C@@H]3C2)c(F)cc2c(=O)c(C(=O)O)cn(C3CC3)c12 ; strain: 424 isolates ; read-out: MIC90 ; value: 0.04 µg/mL
O=CN(O)CCCP(=O)(O)O ; strain: ATCC31517 ; read-out: MIC ; value: 2 µg/mL
CC(=O)NC[C@H]1CN(c2ccc(-c3noc(C(N)=O)n3)c(F)c2)C(=O)O1 ; strain: UC 30063 ; read-out: MIC ; value: >16 µg/mL
CC[C@H]1OC(=O)[C@H](C)C(=O)[C@H](C)[C@@H](O[C@@H]2O[C@H](C)C[C@H](N(C)C)[C@H]2O)[C@@]2(C)C[C@@H](C)C(=NC(C)=O)[C@H](C)C(OC/C(=C\C#Cc3ccccc3)CO2)[C@]1(C)O ; strain: 33929 (ampicillin-resistant) ; read-out: MIC ; value: 4 µg/mL
CC1(C)S[C@@H]2[C@H](NC(=O)[C@H](N)c3ccc(O)cc3)C(=O)N2[C@H]1C(=O)O ; strain: 434 strains ; read-out: MIC50 ; value: 0.25 µg/mL
C#CCOC[C@H]1/C=C(C)/C=C/C(=O)[C@H](C)CC(C=O)[C@H](O[C@@H]2O[C@H](C)[C@@H](O)[C@H](N(C)C)[C@H]2O)[C@@H](C)[C@H](O)CC(=O)O[C@@H]1CC ; strain: 33929 (ampicillin-resistant) ; read-out: MIC ; value: 1 µg/mL
CC[C@H]1OC(=O)[C@H](C)C(=O)[C@H](C)[C@@H](O[C@@H]2O[C@H](C)C[C@H](N(C)C)[C@H]2O)[C@@]2(C)C[C@@H](C)C(=NC(C)=O)[C@H](C)C(OC/C(=C\C#Cc3ccc(N)cc3)CO2)[C@]1(C)O ; strain: 33929 (ampicillin-resistant) ; read-out: MIC ; value: 8 µg/mL
CC[C@H]1OC(=O)C[C@@H](O)[C@H](C)[C@@H](O[C@@H]2O[C@H](C)[C@@H](O)[C@H](N(C)C)[C@H]2O)C(C=O)C[C@@H](C)C(=O)/C=C/C(C)=C/[C@@H]1COC(=O)Nc1ccc(F)cc1 ; strain: 33929 (ampicillin-resistant) ; read-out: MIC ; value: 1 µg/mL
CC[C@H]1OC(=O)[C@H](C)C(=O)[C@H](C)[C@@H](O[C@@H]2O[C@H](C)C[C@H](N(C)C)[C@H]2O)[C@@]2(C)C[C@@H](C)C(=NC(C)=O)[C@H](C)C(OC/C(=C\C#Cc3cccnc3)CO2)[C@]1(C)O ; strain: 33929 (ampicillin-resistant) ; read-out: MIC ; value: 4 µg/mL
CCNC(=O)[C@@H](NC(=O)Cc1ccccc1)[C@@H]1N[C@@H](C(=O)NCCNC(=O)[C@@H]2N[C@@H]([C@H](NC(=O)Cc3ccccc3)C(=O)NCC)SC2(C)C)C(C)(C)S1 ; strain: 434 strains ; read-out: MIC90 ; value: 1 µg/mL
CC[C@H]1OC(=O)[C@H](C)C(=O)[C@H](C)[C@@H](O[C@@H]2O[C@H](C)C[C@H](N(C)C)[C@H]2O)[C@@]2(C)C[C@@H](C)C(=NC(C)=O)[C@H](C)C(OC/C(=C\C=C\c3ccccc3)CO2)[C@]1(C)O ; strain: 33929 (ampicillin-resistant) ; read-out: MIC ; value: 8 µg/mL
CC[C@H]1OC(=O)[C@H](C)C(=O)[C@H](C)[C@@H](O[C@@H]2O[C@H](C)C[C@H](N(C)C)[C@H]2O)[C@](C)(OC)C[C@@H](C)C(=O)[C@H](C)[C@H]2N(CCCCn3cnc(-c4cccnc4)c3)C(=O)O[C@]12C ; strain: 25 strains ; read-out: MIC50 ; value: 1 µg/mL
CC[C@H]1OC(=O)[C@H](C)C(=O)[C@H](C)[C@@H](O[C@@H]2O[C@H](C)C[C@H](N(C)C)[C@H]2O)[C@@]2(C)C[C@@H](C)C(=NC(C)=O)[C@H](C)C(OC/C(=C\C=C\c3cccc([N+](=O)[O-])c3)CO2)[C@]1(C)O ; strain: 33929 (ampicillin-resistant) ; read-out: MIC ; value: 16 µg/mL
CC(=O)NC[C@H]1CN(c2ccc(-c3cc(CO)on3)c(F)c2)C(=O)O1 ; strain: UC 30063 ; read-out: MIC ; value: 8 µg/mL
CC[C@H]1OC(=O)C[C@@H](O)[C@H](C)[C@@H](O[C@@H]2O[C@H](C)[C@@H](O)[C@H](N(C)C)[C@H]2O)C(C=O)C[C@@H](C)C(=O)/C=C/C(C)=C/[C@@H]1COC(=O)Nc1cc(F)cc(F)c1 ; strain: 33929 (ampicillin-resistant) ; read-out: MIC ; value: 1 µg/mL
CC[C@H]1OC(=O)[C@H](C)C(=O)[C@H](C)[C@@H](O[C@@H]2O[C@H](C)C[C@H](N(C)C)[C@H]2O)[C@@]2(C)C[C@@H](C)C(=NC(C)=O)[C@H](C)C(OC/C(=N\OCC#Cc3cccc(N)n3)CO2)[C@]1(C)O ; strain: 25 strains ; read-out: MIC50 ; value: 0.125 µg/mL
CC[C@H]1OC(=O)[C@H](C)C(=O)[C@H](C)[C@@H](O[C@@H]2O[C@H](C)C[C@H](N(C)C)[C@H]2O)[C@@]2(C)C[C@@H](C)/C(=N\C(=O)OC)[C@H](C)C(OC/C(=C\C=C\c3ccccc3)CO2)[C@]1(C)O ; strain: 33929 (ampicillin-resistant) ; read-out: MIC ; value: 32 µg/mL
CC[C@H]1OC(=O)C[C@@H](O)[C@H](C)[C@@H](O[C@@H]2O[C@H](C)[C@@H](O)[C@H](N(C)C)[C@H]2O)C(C=O)C[C@@H](C)C(=O)/C=C/C(C)=C/[C@@H]1COC(N)=O ; strain: 33929 (ampicillin-resistant) ; read-out: MIC ; value: 2 µg/mL

Repeating the first 2 entries:

smiles,strain,read-out,value
CC(=O)NC[C@H]1CN(c2ccc(-c3nsc(C#N)n3)c(F)c2)C(=O)O1,UC 30063,MIC,>16 µg/mL
CO/N=C1\CN(c2nc3c(cc2F)c(=O)c(C(=O)O)cn3C2CC2)CC1CN,24 strains,MIC90,0.016 µg/mL

Lines come from different laboratories, so protocols vary.